Patent US9625458B2, “Biosensor” (priority 2002, dated 2017)
Numbering of substitutions follows the chain as printed. In names and notes the source's numbering stands.

Test: Fluorescence emission spectra without and with saturating ligand (wavelength shift, ΔIstd, ΔRmax)
Settings: for λmax,apo (nm) / λmax,sat (nm): emission maximum; for λmax,apo (nm): absence of ligand; for λmax,sat (nm): saturating ligand (ligand column); for ΔIstd: standard intensity change; for ΔIstd / ΔRmax: unbound vs ligand-saturated; for ΔRmax: standard ratiometric change
Protocol: Fluorimetry. All measurements were conducted with an SLM Aminco-Bowman series 2 fluorimeter, with sample stirring at 25° C. Fluorescence emission spectra were acquired with excitation and emission slit widths of 4 and 8 nm, respectively. Photomultiplier tube potential was maintained between 400 and 800 volts. Protein concentrations were in the range of 50 to 1000 nM. Fluorophore-specific excitation was at the following approximate wavelengths: tryptophan, 290 nm; acrylodan, 390 nm; fluorescein, 485 nm; pyrene, 340 nm; NBD and NBDE, 490 nm; JPW4039, 485 nm; JPW4042, 470 nm; JPW4045, 470 nm.
Assessment of fluorescent biosensor function. Fluorescence emission spectra of bPBP-fluorophore conjugates were recorded in the absence and presence of saturating ligand concentrations. Spectral changes were characterized by four parameters: wavelength shift (the difference between the wavelengths of emission maximum in the unbound and ligand-saturated states), direction of intensity change (increase or decrease in intensity at the wavelengths of maximum emission in the two states), standard intensity change (ΔIstd), and standard ratiometric change (ΔR). ΔIstd is defined as the normalized intensity change relative to the average intensity, determined at the wavelength mid-point between the two emission maxima:
[formula] where λstd=(λmax, unbound+λmax, saturated)/2 and I1, I2 are the fluorescence intensities at λstd of each spectrum respectively (FIG. 4A). ΔR is defined in terms of two emission bands, A1 ([λ1, λ2]) and A2 ([λ3, λ4]) (FIG. 4B):
[formula] where ^∘A1, […] the areas in the absence of ligand, and ^∞A1, ^∞A2 the areas in the presence of saturating ligand. A computer program was used to enumerate ΔR for all possible pairs of wavelength bands in the two spectra, to identify the optimal sensing condition, defined as the maximum value of ΔR. Adjustable parameters of the algorithm, and their values used for ΔRmax quantities reported here, are: step size (2 nm), step width (10 nm), minimum integration area limit (fraction of total: 0.1), and maximum integration area limit (fraction of total: 1).

B1: histidine BP V163C NBD (conjugate, UniProt P0AEU0 23-260, looked up, variant V163C)
Histidine-binding periplasmic …: AIPQNIRIGTDPTYAPFESKNSQGELVGFDIDLAKELCKRINTQCTFVENPLDALIPSLKAKKIDAIMSSLSITEKRQQEIAFTDKLYAADSRLVVAKNSDIQPTVESLKGKRVGVLQGTTQETFGNEHWAPKGIEIVSYQGQDNIYSDLTAGRIDAAFQDECAASEGFLKQPVGKDYKFGGPSVKDEKLFGVGTGMGLRKEDNELREALNKAFAEMRADGTYEKLAKKYFDFDVYGG
modifications: NBD dye conjugate
  λmax,apo (nm): 542
  λmax,sat (nm): 543
  ΔIstd: 0.17
  ΔRmax: 1.32

B2: histidine BP Y230C NBD (conjugate, UniProt P0AEU0 23-260, looked up, variant Y230C)
Histidine-binding periplasmic …: B1 Histidine-binding periplasmic … with C163V, Y230C
modifications: NBD label
  λmax,apo (nm): 535
  λmax,sat (nm): 534
  ΔIstd: 0.09
  ΔRmax: 0.20

B3: histidine BP Y88C Acrylodan (conjugate, UniProt P0AEU0 23-260, looked up, variant Y88C)
Histidine-binding periplasmic …: B1 Histidine-binding periplasmic … with Y88C, C163V
modifications: acrylodan conjugate
  λmax,apo (nm): 491
  λmax,sat (nm): 493
  ΔIstd: 0.03
  ΔRmax: 0.30

B4: histidine BP F231C NBD (conjugate, UniProt P0AEU0 23-260, looked up, variant F231C)
Histidine-binding periplasmic …: B1 Histidine-binding periplasmic … with C163V, F231C
modifications: NBD dye conjugate
  λmax,apo (nm): 545
  λmax,sat (nm): 542
  ΔIstd: 0.07
  ΔRmax: 0.19

B5: histidine BP Y230C Acrylodan (conjugate, UniProt P0AEU0 23-260, looked up, variant Y230C)
Histidine-binding periplasmic …: B1 Histidine-binding periplasmic … with C163V, Y230C
modifications: acrylodan label
  λmax,apo (nm): 523
  λmax,sat (nm): 522
  ΔIstd: 0.02
  ΔRmax: 0.18

B6: histidine BP F231C Acrylodan (conjugate, UniProt P0AEU0 23-260, looked up, variant F231C)
Histidine-binding periplasmic …: B1 Histidine-binding periplasmic … with C163V, F231C
modifications: acrylodan label
  λmax,apo (nm): 524
  λmax,sat (nm): 525
  ΔIstd: 0.01
  ΔRmax: 0.56

B7: arabinose BP L253C JPW4039 (conjugate, UniProt P02924 24-329, looked up, variant L253C)
L-arabinose-binding …: ENLKLGFLVKQPEEPWFQTEWKFADKAGKDLGFEVIKIAVPDGEKTLNAIDSLAASGAKGFVICTPDPKLGSAIVAKARGYDMKVIAVDDQFVNAKGKPMDTVPLVMMAATKIGERQGQELYKEMQKRGWDVKESAVMAITANELDTARRRTTGSMDALKAAGFPEKQIYQVPTKSNDIPGAFDAANSMLVQHPEVKHWLIVGMNDSTVLGGVRATEGQGFKAADIIGIGINGVDAVSELSKAQATGFYGSLCPSPDVHGYKSSEMLYNWVAKDVEPPKFTEVTDVVLITRDNFKEELEKKGLGGK
modifications: JPW4039 label
  λmax,apo (nm): 590
  λmax,sat (nm): 589
  ΔIstd: 0.83
  ΔRmax: 1.31

B8: arabinose BP L253C Acrylodan (conjugate, UniProt P02924 24-329, looked up, variant L253C)
L-arabinose-binding …: B7 L-arabinose-binding …
modifications: acrylodan conjugate
  λmax,apo (nm): 482
  λmax,sat (nm): 495
  ΔIstd: 0.05
  ΔRmax: 1.81

B9: arabinose BP L253C Fluoresecin (conjugate, UniProt P02924 24-329, looked up, variant L253C)
L-arabinose-binding …: B7 L-arabinose-binding …
modifications: fluorescein conjugate
  λmax,apo (nm): 519
  λmax,sat (nm): 515
  ΔIstd: 0.24
  ΔRmax: 2.71
